Measured values from several laboratories, pooled; numbers as filed in NIAID ChemDB.

All rows: whole-cell or culture tests; organism: HIV-1; method: p24; measure: EC50

Two numbers with a dash give a range or band. Neighbouring rows are from separate reports. ECn is the concentration giving n% inhibition of infection, replication or growth. An empty or dashed field is not shown.

| compound | conditions | strain | mutations | cells | value |
|---|---|---|---|---|---|
| O=S(=O)(O)OCC1OC2OC3C(COS(=O)(=O)O)OC(OC4C(COS(=O)(=O)O)OC(OC5C(COS(=O)(=O)O)OC(OC6C(COS(=O)(=O)O)OC(OC7C(COS(=O)(=O)O)OC(OC8C(COS(=O)(=O)O)OC(OC1C(OS(=O)(=O)O)C2OS(=O)(=O)O)C(OS(=O)(=O)O)C8OS(=O)(=O)O)C(OS(=O)(=O)O)C7OS(=O)(=O)O)C(OS(=O)(=O)O)C6OS(=O)(=O)O)C(OS(=O)(=O)O)C5OS(=O)(=O)O)C(OS(=O)(=O)O)C4OS(=O)(=O)O)C(OS(=O)(=O)O)C3OS(=O)(=O)O |  |  |  | PBMC | 4.5 µg/mL |
| COc1cc(C[C@H]2C(=O)OC[C@@H]2Cc2ccc(OC)c(OC)c2)ccc1O |  | IIIB |  | H9 | <0.05 µM |
| C=C1CN(S(=O)(=O)c2ccc(C)cc2)CCCN(Cc2ccccn2)CCCN(S(=O)(=O)c2ccc(C)cc2)C1 |  | NL4-3 |  | MT-4 | >75 µM |
| O=C1c2c(O)c(=O)n(Cc3nccc4ccccc34)c(=O)n2CCN1Cc1ccc(F)cc1 |  |  |  | MT-4 | <10 µM |
| C=C1CN(S(=O)(=O)c2ccc(Br)cc2)CCCN(Cc2ccccc2)CCCN(S(=O)(=O)c2ccc(Br)cc2)C1 |  | NL4-3 |  | MT-4 | 1.84 µM |
| Cc1ccc(-c2ccc3c(c2)C=C(C(=O)Nc2ccc(C[N+](C)(C)C4CCOCC4)cc2)CCC3)cc1 |  | COT6 CLADE C |  | PBMC | <5 µM |
| CN(C)C(=O)C(=O)N(C)C1CN(CCc2ccccc2)CCn2c1nc(C(=O)NCc1ccc(F)cc1)c(O)c2=O |  |  |  | MT-4 | <1 µM |
| CC(C)[C@H](NC(=O)[C@H](CO)NC(=O)[C@@H](N)CS)C(=O)N[C@H](C(=O)N[C@@H](CS)C(=O)NCC(=O)O)[C@@H](C)O |  | IIIB |  | PBMC(PHA STIM.) + PBMC | <0.66 µM |
| CC(=O)N1CCC(C(=O)N(CCCN2CCC(Cc3ccc(C(N)=O)cc3)CC2)c2ccc(C)c(Cl)c2)CC1 |  | HTN Clinical isolates |  | PBMC | 0.0009 µM |
| CC(C)CN(C[C@@H](O)[C@H](Cc1ccccc1)NC(=O)O[C@H]1CO[C@H]2OCC[C@H]21)S(=O)(=O)c1ccc2c(c1)OCO2 |  | NL4-3 (RTV5) | M46I V82F I84V | MT-4 | 0.0025 µM |
| O=C1c2ccccc2N(Cc2cccc3ccccc23)S(=O)(=O)N1Cc1ccccc1 |  | IIIB |  | CEM + CEM-SS | >10 µM |
| CC(=O)N1CCC(C(=O)N(CCCN2CCC(Cc3ccc(C(N)=O)cc3)CC2)c2ccc(C)c(Cl)c2)CC1 |  | R5-08 Clinical isolate |  | PBMC | 0.00312 µM |
| CCCOP(=O)(OCC(=O)OCC)OC[C@H]1O[C@@H](n2cc(C)c(=O)[nH]c2=O)C[C@@H]1OC(C)=O |  | RF |  | C8166 | >100 µM |
| C=C1CN(S(=O)(=O)c2ccc(C)cc2)CCCN(CC(C)C)CCCN(S(=O)(=O)c2ccc(C)cc2)C1 |  | NL4-3 |  | MT-4 | 19.3 µM |
| C[C@@H](O)CCCCn1c(=O)c2c(ncn2C)n(C)c1=O |  | LAV |  | U1(HIV-1 (LAV)) + U1 | 20–200 µM |
| Cc1cc(C)cc(S(=O)(=O)c2c(C(=O)NNCCO)[nH]c3ccc(Cl)cc23)c1 |  | EFV-resistant (RT K103R V179D P225H) | RT-K103R V179D P225H | C8166 | <0.2 µM |
| C=CCN(C(=O)OCc1ccc([N+](=O)[O-])cc1)C1CCN(C[C@H]2CN(C(=O)C3CCCC3)C[C@]2(O)c2ccccc2)CC1 |  | 93IN109 R5 CLADE C |  | PBMC | 0.0019 µM |
| O=C(O)c1cc(-n2cccc2)ccc1Cl |  | 93IN101 R5 CLADE C |  | PBMC + MT-2 | 19.73 µM |
| CCc1cc(=O)c2ccc3c(c2o1)[C@@H](OC(=O)C12CCC(C)(C(=O)O1)C2(C)C)[C@@H](OC(=O)C12CCC(C)(C(=O)O1)C2(C)C)C(C)(C)O3 |  | NL4-3 | RT-E138K | MT-4 | >10 µM |
| O=C(NCc1ccc(F)cc1)c1nc2n(c(=O)c1O)CCN(Cc1cocn1)C21CC1 |  |  |  | MT-4 | <1 µM |
| CCCCCCOP(=O)(OCC(=O)OCC)OC[C@H]1O[C@@H](n2cc(C)c(=O)[nH]c2=O)C[C@@H]1OC(C)=O |  | RF |  | C8166 | >100 µM |
| CC(C)[C@H](NC(=O)[C@H](CO)NC(=O)[C@@H](N)CSSCC(=O)O)C(=O)N[C@H](C(=O)N[C@@H](CSSCC(=O)O)C(=O)NCC(=O)O)[C@@H](C)O |  | BaL |  | PBMC(PHA STIM.) + PBMC | <1.32 µM |
| Cc1ccc(S(=O)(=O)N2CCCN(Cc3ccccc3)CCCN(S(=O)(=O)c3ccc(C)cc3)CC(=O)C2)cc1 |  | NL4-3 |  | MT-4 | >15 µM |
| Cc1cc(C)cc(S(=O)(=O)c2c(C(=O)/C=C/C(N)=O)[nH]c3ccc(Cl)cc23)c1 |  | IIIB | RT-K103N Y181C | C8166 | >100 µM |
| O=C1c2ccccc2N(Cc2ccccc2-c2ccccc2)S(=O)(=O)N1Cc1ccccc1 |  | IIIB |  | CEM + CEM-SS | 2 µM |
| NC(=O)c1ccccc1NC(=O)CSc1nnnn1-c1cccc2ccccc12 |  |  |  | MT-4 | <10 µM |
| CN1CCn2c(nc(C(=O)NCc3ccc(F)cc3)c(O)c2=O)C1CN(C)S(C)(=O)=O |  |  |  | MT-4 | 1–10 µM |
| Cc1ccccc1-n1nnnc1SCC(=O)Nc1ccccc1Cl |  |  |  | MT-4 | <10 µM |
| NCCSSCCN |  | IIIB |  | PBL | ~50 µM |
| O=C1c2ccccc2N(Cc2ccc(Cl)cc2)S(=O)(=O)N1Cc1ccc(Cl)cc1 |  | IIIB |  | MT-4 | >125 µM |
| CC(C)n1c(=O)c(O)c2n(c1=O)CCN(Cc1ccccc1C#N)C2=O |  |  |  | MT-4 | <10 µM |
| Cn1ccc(CN2CCn3c(nc(C(=O)NCc4ccc(F)cc4)c(O)c3=O)C23CC3)n1 |  |  |  | MT-4 | <1 µM |
| CCCCCCCCCCCCCCCCCCOC[C@@H](O)COP(=O)(O)C(=O)O |  | LAI |  | MT-2 | 1400 µM |
| COC(=O)C(C)OP(=O)(OC)OC[C@H]1O[C@@H](n2cc(C)c(=O)[nH]c2=O)C[C@@H]1N=[N+]=[N-] |  | RF |  | C8166 | 0.6 µM |
| Cc1c(C)c(S(=O)(=O)NC(N)=NCCCC(N)C(=O)N2CCCC2C#N)c(C)c2c1C(C)(C)OC(C)(C)C2(C)C |  | IIIB |  | CEM | 2.4 µM |
| C=C1CN(S(=O)(=O)c2ccc(C)cc2)CCCN(C(C)=O)CCCN(S(=O)(=O)c2ccc(C)cc2)C1 |  | NL4-3 |  | MT-4 | >75 µM |
| Cc1cc(C)c(-n2nnnc2SCC(=O)Nc2cccc(Cl)c2C#N)c(C)c1 |  |  |  | MT-4 | <10 µM |
| CCOCn1c(Cc2ccccc2)c(C(C)C)c(=O)[nH]c1=O |  | CC3 |  | PBMC | 0.04 µM |
| Nc1nc(NC2CC2)c2ncn([C@H]3C=C[C@@H](CO)C3)c2n1 |  | WT |  | PBMC | <4 µM |
| CC1(C)c2nc(C(=O)NCc3ccc(F)cc3)c(O)c(=O)n2CCN1S(C)(=O)=O |  |  |  | MT-4 | <1 µM |
| CCSCCn1c(=O)c(O)c2n(c1=O)CCN(Cc1ccc(F)cc1)C2=O |  |  |  | MT-4 | <10 µM |
| O=C1c2ccccc2N(Cc2ccccc2)S(=O)(=O)N1Cc1ccccc1 |  | IIIB |  | MT-4 | 20.3 µM |
| Cc1ccc(-n2nnnc2SCC(=O)Nc2ccccc2Cl)c([N+](=O)[O-])c1 |  |  |  | MT-4 | <10 µM |
| C=C1CN(S(=O)(=O)c2ccc(C)cc2)CCCN(Cc2cccnc2)CCCN(S(=O)(=O)c2ccc(C)cc2)C1 |  | NL4-3 |  | MT-4 | 5.6 µM |
| Clc1cc(CN2CCCNCCNCCCNCC2)cc(Cl)n1 |  | HE R3 R5 X4 |  | MT-4 | 26.5 µM |
| O=C1c2c(O)c(=O)n(-c3ccc(N4CCCCC4)cc3)c(=O)n2CCN1Cc1ccc(F)cc1 |  |  |  | MT-4 | <10 µM |
| Cc1cc(C)c(-n2nnnc2SCC(=O)Nc2ccc(F)cc2F)c(C)c1 |  |  |  | MT-4 | <10 µM |
| CC(C)=CCOc1cc(NC(=S)c2ccoc2C)ccc1Cl |  | NL4-3 | RT-L100I | CEM + CEM-SS | 0.4 µM |
| CCCCCCCCCCCCCC(=O)OCC/C(SS/C(CCOC(=O)CCCCCCCCCCCCC)=C(\C)N(C=O)Cc1cnc(C)nc1N)=C(/C)N(C=O)Cc1cnc(C)nc1N |  | JRFL(NSI/MT) |  | PBMC(CXCR4 CCR5) + PBMC | 14.7 µM |
| CN(C)C(=O)C(=O)N(C)CC1c2nc(C(=O)NCc3ccc(F)cc3)c(O)c(=O)n2CCN1C |  |  |  | MT-4 | 1–10 µM |
| O=C(NCc1ccc(F)cc1)c1ncc2cccnc2c1O | 10% FBS |  |  | MT-4 | <1.25 µM |
| CON(C)CCC1CN(Cc2ccc(F)cc2)C(=O)c2c(O)c(=O)n(C(C)C)c(=O)n21 |  |  |  | MT-4 | <10 µM |

The first 6 rows once more:

| compound | conditions | strain | mutations | cells | value |
|---|---|---|---|---|---|
| O=S(=O)(O)OCC1OC2OC3C(COS(=O)(=O)O)OC(OC4C(COS(=O)(=O)O)OC(OC5C(COS(=O)(=O)O)OC(OC6C(COS(=O)(=O)O)OC(OC7C(COS(=O)(=O)O)OC(OC8C(COS(=O)(=O)O)OC(OC1C(OS(=O)(=O)O)C2OS(=O)(=O)O)C(OS(=O)(=O)O)C8OS(=O)(=O)O)C(OS(=O)(=O)O)C7OS(=O)(=O)O)C(OS(=O)(=O)O)C6OS(=O)(=O)O)C(OS(=O)(=O)O)C5OS(=O)(=O)O)C(OS(=O)(=O)O)C4OS(=O)(=O)O)C(OS(=O)(=O)O)C3OS(=O)(=O)O |  |  |  | PBMC | 4.5 µg/mL |
| COc1cc(C[C@H]2C(=O)OC[C@@H]2Cc2ccc(OC)c(OC)c2)ccc1O |  | IIIB |  | H9 | <0.05 µM |
| C=C1CN(S(=O)(=O)c2ccc(C)cc2)CCCN(Cc2ccccn2)CCCN(S(=O)(=O)c2ccc(C)cc2)C1 |  | NL4-3 |  | MT-4 | >75 µM |
| O=C1c2c(O)c(=O)n(Cc3nccc4ccccc34)c(=O)n2CCN1Cc1ccc(F)cc1 |  |  |  | MT-4 | <10 µM |
| C=C1CN(S(=O)(=O)c2ccc(Br)cc2)CCCN(Cc2ccccc2)CCCN(S(=O)(=O)c2ccc(Br)cc2)C1 |  | NL4-3 |  | MT-4 | 1.84 µM |
| Cc1ccc(-c2ccc3c(c2)C=C(C(=O)Nc2ccc(C[N+](C)(C)C4CCOCC4)cc2)CCC3)cc1 |  | COT6 CLADE C |  | PBMC | <5 µM |